Pooled drug test results. Numbers come from NIAID ChemDB, via PubChem.

Common to all: tests in culture; organism: Herpes simplex virus 2; cells: PRK; method: cytopathic effect; measure: EC50

Neighbouring rows are from separate reports. ECn: concentration that inhibits the pathogen or its effect by n%. Blank or dashed fields: not listed here.

compound	strain or isolate	result
Nc1ncnc2c1ncn2C[C@H](O)CO		>400 µg/mL
Nc1nccc2c1ncn2[C@@H]1C[C@H](CO)[C@@H](O)[C@H]1O	LYONS G 196	≥300 µg/mL
Nc1ncnc2c1c(Br)cn2[C@@H]1O[C@H](CO)[C@@H](O)[C@H]1O	G	≥0.4 µg/mL
Nc1ncnc2c1ncn2C[C@H](O)CO	G	>100 µg/mL
COC(C)c1cn([C@@H]2O[C@H](CO)[C@@H](O)[C@H]2O)c2ncnc(N)c12		40 µg/mL
Nc1ncnc2c1ccn2[C@@H]1O[C@H](CO)C[C@H]1O	G	≥10 µg/mL
Nc1nccc2c1ncn2[C@@H]1C[C@H](CO)[C@@H](O)[C@H]1O	G	>400 µg/mL
NC(=O)c1ncn([C@@H]2O[C@H](CO)[C@@H](O)[C@H]2O)c1C#CCCO	G	>400 µg/mL
NC(=O)c1ncn([C@@H]2O[C@H](CO)[C@@H](O)[C@H]2O)n1	G	>400 µg/mL
C#Cc1c(C(N)=O)ncn1[C@@H]1O[C@H](CO)[C@@H](O)[C@H]1O	G	>400 µg/mL
NC(=O)c1cn([C@@H]2O[C@H](CO)C[C@H]2O)c2ncnc(N)c12	G	≥10 µg/mL
Nc1nccc2c1ncn2[C@@H]1C[C@H](CO)[C@@H](O)[C@H]1O	G	200 µg/mL
Nc1ncnc2c1ccn2[C@@H]1C[C@H](CO)[C@@H](O)[C@H]1O		7 µg/mL
Nc1nccc2c1ncn2[C@@H]1C[C@H](CO)[C@@H](O)[C@H]1O	G	400 µg/mL
Nc1ncnc2c1c(Br)cn2[C@@H]1O[C@H](CO)[C@@H](O)[C@H]1O		0.2 µg/mL
Nc1ncnc2c1ccn2[C@@H]1O[C@H](CO)[C@@H](O)[C@@H]1O	G	40 µg/mL
Nc1ncnc2c1ncn2[C@@H]1C=C(CO)[C@@H](O)[C@H]1O	G	10 µg/mL
Nc1ncnc2c1ccn2[C@@H]1O[C@H](CO)[C@H](O)[C@H]1O	G	0.07 µg/mL
Nc1ncnc2c1ncn2[C@H]1[C@H](O)[C@H](O)[C@]2(CO)O[C@H]12	G	2 µg/mL
Nc1ncnc2c1ccn2[C@@H]1O[C@H](CO)[C@@H](O)[C@H]1O		>0.1 µg/mL
O=c1[nH]cnc2c1ncn2[C@@H]1C=C(CO)[C@@H](O)[C@H]1O	G	>400 µg/mL
Nc1nccc2c1ncn2[C@@H]1C[C@H](CO)[C@@H](O)[C@H]1O	G	>400 µg/mL

A second listing of 2 rows from above:

{"compound": "Nc1ncnc2c1ccn2[C@@H]1O[C@H](CO)[C@@H](O)[C@@H]1O", "strain or isolate": "G", "result": "40 µg/mL"}
{"compound": "Nc1ncnc2c1ccn2[C@@H]1C[C@H](CO)[C@@H](O)[C@H]1O", "result": "7 µg/mL"}